In this test the target is recombinant staphylococcal enterotoxin B (SEB), mature protein with N-terminal His6-tag (Staphylococcus aureus COL), P01552.

This note sets out measurements from patent US20200148741A1.

One may read the Kd as the equilibrium constant for the complex coming apart. Usually koff stands for the rate constant with which the complex falls apart. For orientation: kon means a measure of how fast the partners come together.

Turning to EKFDSVHSKYM [pB2-4, immobilized for Surface Plasmon Resonance], the Kd was 2.32 µM, the koff amounted to 0.000958 s⁻¹ and the kon came out at 413 M⁻¹ s⁻¹.
